Reference: ChEMBL document CHEMBL5505957 (Eur J Med Chem, 2024)

Test: Selectivity index, ratio of IC50 for cytotoxicity against MDCK cells to IC50 for Inhibition of Influenza A virus H1N1 neuraminidase
Details: dog

CC(=O)O[C@H]1[C@H](OCc2cn(CC3=NCCS3)nn2)OC[C@@H](OC(C)=O)[C@H]1OC(C)=O
Ratio IC50: 184
